The source of these data is paper PMC3726044 (Biochemistry, 2013).

For data set [1], the system named is C[C@@H](C(=O)SCCNC(=O)CCNC(=O)[C@H](O)C(C)(C)COP(=O)(O)OP(=O)(O)OC[C@H]1O[C@@H](n2cnc3c(N)ncnc32)[C@H](O)[C@@H]1OP(=O)(O)O)[C@H]1CC[C@H]2C(=O)CCC[C@]12C. Description: purified protein. To be noted: pH 8.5; 25.0 °C.
The test system of data set [2] is C[C@H](C(=O)SCCNC(=O)CCNC(=O)[C@H](O)C(C)(C)COP(=O)(O)OP(=O)(O)OC[C@H]1O[C@@H](n2cnc3c(N)ncnc32)[C@H](O)[C@@H]1OP(=O)(O)O)[C@H]1CC[C@H]2[C@@H]3CCC4=CC(=O)CC[C@]4(C)[C@H]3CC[C@]12C. Nature of the data set: purified protein. To be noted: pH 8.5; 25.0 °C.

Take “ChsE1-ChsE2 (Mycobacterium tuberculosis H37Rv)”: in data set [1], the Michaelis constant (Km) (in general, the substrate concentration at which the rate is half of its maximum) stood at 86 ± 7 µM and the specificity constant (kcat/Km) (in general, the turnover number divided by the Michaelis constant) was determined as 980 M⁻¹ s⁻¹. Besides, in data set [2], the Km came out at 5.3 ± 0.9 µM and the kcat/Km worked out at 250000 M⁻¹ s⁻¹.
